Measured values reported in ChEMBL document CHEMBL1154198, “Chemical genetics of Plasmodium falciparum” (Nature, 2010).
pEC50: −log10 of the molar value.

Test system: Plasmodium falciparum
Test: ST_JUDE: Plasmodium falciparum 3D7 EC50 (uM) as measured by SYBR green dye
Type: functional, organism-based

For `Nc1nc(N)c([N+](=O)[O-])nc1[N+](=O)[O-]`, the pEC50 was < 4.82.
